Drawing on PubChem BioAssay AID504847 (National Center for Advancing Translational Sciences (NCATS), 2011), this text covers Potency for 1 compound.

Chains of the proteins cited; added tags and fusions are not shown.
UniProt P11473, whole entry: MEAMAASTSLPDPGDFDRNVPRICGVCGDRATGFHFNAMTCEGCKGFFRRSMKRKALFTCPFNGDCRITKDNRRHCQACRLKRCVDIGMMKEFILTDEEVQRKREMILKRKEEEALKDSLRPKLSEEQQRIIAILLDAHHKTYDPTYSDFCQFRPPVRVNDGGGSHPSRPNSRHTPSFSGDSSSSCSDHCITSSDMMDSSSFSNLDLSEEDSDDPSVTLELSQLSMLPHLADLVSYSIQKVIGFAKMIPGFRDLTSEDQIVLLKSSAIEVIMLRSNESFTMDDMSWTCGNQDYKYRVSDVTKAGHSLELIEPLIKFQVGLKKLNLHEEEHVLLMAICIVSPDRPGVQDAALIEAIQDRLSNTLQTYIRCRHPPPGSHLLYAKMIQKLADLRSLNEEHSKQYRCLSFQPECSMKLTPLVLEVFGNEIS

Only a part is listed here, and it is no random draw. Results filed as inconclusive are left out. Activity calls are given as the source filed them. Calls come from the whole dose curve; as a rule, active = well fitted inhibition curve with a large enough effect; inconclusive = small, poorly fitted or top-dose-only effect, or another doubt; inactive = no such curve, though single readings can be large or run the other way.
Potency is the fitted concentration of half-maximal effect.

This test concerns the target Vitamin D3 receptor (Homo sapiens) (UniProt P11473). The test is described as follows: Inhibitors of the vitamin D receptor (VDR): qHTS. Particulars: VDR-SRC2-3 peptide fluorescence polarization, 2 h.
Regarding `COc1ccc2cc([S+]([O-])Cc3ncc(C)c(OC)c3C)nc2c1`, the Potency was active: 50.1 µM.
